Tested on: coxsackievirus B3 strain Nancy
Assay: Viral yield reduction assay against CVB3 in Vero cells
Assay type: cell-based
Conditions: ratio of CC50 to IC50, CVB3 Nancy

Row | Compound | SI
1 | CCOC(=O)c1cc(CCC(=O)Oc2ccc(-c3noc(C(F)(F)F)n3)cc2C)on1 [Compound 12a, Ethyl 5-(3-(2-methyl-4-(5-(trifluoromethyl)-1,2,4-oxadiazol-3-yl)phenoxy)-3-oxopropyl)-isoxazole-3-carboxylate] | 75
2 | CCOC(=O)c1cc(CCC(=O)Nc2ccc(-c3noc(C(F)(F)F)n3)cc2C)on1 [Compound 20a, Ethyl 5-(3-((2-methyl-4-(5-(trifluoromethyl)-1,2,4-oxadiazol-3-yl)phenyl)amino)-3-oxopropyl)isoxa-zole-3-carboxylate] | 95
3 | Cc1cc(-c2noc(C(F)(F)F)n2)ccc1SCCCc1cc(C(=O)N(C)C)no1 [Compound 7, N,N-dimethyl-5-(3-((2-methyl-4-(5-(trifluoromethyl)-1,2,4-oxadiazol-3-yl)phenyl)thio)propyl)isoxa-zole-3-carboxamide] | >122
4 | Cc1cc(-c2noc(C(F)(F)F)n2)ccc1N1CCN(C(=O)c2cc(-c3ccccc3)no2)CC1 [Compound 35a, (4-(2-Methyl-4-(5-(trifluoromethyl)-1,2,4-oxadiazol-3-yl)phenyl)piperazin-1-yl)(3-phenylisoxazol--5-yl)methanone] | <2
5 | Cc1cc(-c2noc(C(F)(F)F)n2)ccc1NC(=O)CCc1cc(C(=O)N(C)C)no1 [Compound 21, N,N-dimethyl-5-(3-((2-methyl-4-(5-(trifluoromethyl)-1,2,4-oxadiazol-3-yl)phenyl)amino)-3-oxopro-pyl)isoxazole-3-carboxamide] | 248
6 | Cc1cc(CCCOc2c(C)cc(-c3noc(C(F)(F)F)n3)cc2C)on1 [Pleconaril] | 130
7 | Cc1cc(CCCSc2ccc(-c3noc(C(F)(F)F)n3)cc2C)on1 [Compound 6b, 3-(3-Methyl-4-((3-(3-methylisoxazol-5-yl)propyl)thio)phenyl)-5-(trifluoromethyl)-1,2,4-oxadiazole] | > 167
8 | CCOC(=O)c1cc(N2CCN(c3ccc(-c4noc(C(F)(F)F)n4)cc3C)CC2)on1 [Compound 28c, Ethyl 5-(4-(2-methyl-4-(5-(trifluoromethyl)-1,2,4-oxadiazol-3-yl)phenyl)piperazin-1-yl)isoxazole-3-carboxylate] | 1
9 | CCOC(=O)c1cc(CCCSc2ccc(-c3noc(C(F)(F)F)n3)cc2C)on1 [Compound 6a, 3-(3-Methyl-4-((3-(3-carbethoxy-isoxazol-5-yl)propyl)thio)phenyl)-5-(trifluoromethyl)-1,2,4-oxadia-zole] | 23
10 | Cc1cc(-c2noc(C(F)(F)F)n2)ccc1N1CCN(C(=O)c2c(-c3ccccc3)noc2C)CC1 [Compound 35b, (5-Methyl-3-phenylisoxazol-4-yl)(4-(2-methyl-4-(5-(trifluoromethyl)-1,2,4-oxadiazol-3-yl)phenyl)pi-perazin-1-yl)methanone] | 125
11 | Cc1cc(CN2CCN(c3ccc(-c4noc(C(F)(F)F)n4)cc3C)CC2)on1 [Compound 28b, 3-(3-Methyl-4-(4-((3-methylisoxazol-5-yl)methyl)piperazin-1-yl)phenyl)-5-(trifluoromethyl)-1,2,4-oxadiazole] | 59
12 | Cc1cc(CCC(=O)Oc2ccc(-c3noc(C(F)(F)F)n3)cc2C)on1 [Compound 12b, 2-Methyl-4-(5-(trifluoromethyl)-1,2,4-oxadiazol-3-yl)phenyl 3-(3-methylisoxazol-5-yl)propanoate] | 35
13 | Cc1cc(CCC(=O)Nc2ccc(-c3noc(C(F)(F)F)n3)cc2C)on1 [Compound 20b, N-(2-Methyl-4-(5-(trifluoromethyl)-1,2,4-oxadiazol-3-yl)phenyl)-3-(3-methylisoxazol-5-yl)propan-amide] | 23
14 | Cc1cc(-c2noc(C(F)(F)F)n2)ccc1N1CCN(c2cc(C(=O)N(C)C)no2)CC1 [Compound 28a, N,N-Dimethyl-5-(4-(2-methyl-4-(5-(trifluoromethyl)-1,2,4-oxadiazol-3-yl)phenyl)piperazin-1-yl)iso-xazole-3-carboxamide] | 205

Reference: article PMC7144106, “The Evolution of Pleconaril: Modified O-Alkyl Linker Analogs Have Biological Activity towards Coxsackievirus B3 Nancy” (Molecules, 2020)
